Results deposited as PubChem BioAssay AID504761 (Drosophila RNAi Screening Center, 2011)

Assay: 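Genome-wide fly cell screen for genes dengue virus requires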 (primary screen)
Cell system: D.Mel-2 cells from Drosophila
Reagent: long dsRNA against Drosophila genes
Treatment: infection with dengue virus type 2; dose and infection time not stated
Measured: 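Cells stained for dengue envelope protein and imaged; percent of infected cells per well on duplicate plates, ranked by infection, with stained nuclei counted for cell number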
Reading the numbers: infection score: higher = more virus-infected cells
Call rule: 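Low infection ranks in the two replicates (chance level up to 0.065) followed by a retest with a 1.5-fold or larger significant decrease, p below 0.05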
Meaning of the calls: active = confirmed: knock-down lowers infection; inactive = not picked or not confirmed
The screen tested about 22,000 reagents; shown is an unselected part of those with a known target gene and a result. In the full data, 116 (0.52%) were called active. 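Calls depend on retest data that are not deposited; infection was ranked per plate without normalising between plates; the unit of the infection score is not given.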 Entries without a mark were called inactive. Further read-outs or replicates are left out here. The record does not give: the amount of reagent, the time to read-out.

The first 2 entries as a preview:
target gene | DRSC id | infection score, replicate 1 | infection score, replicate 2
CG16786 (GeneID 37856) | DRSC04281 | 2.34 | 9.94
CG15767 (GeneID 31508) | DRSC18073 | 1.06 | 0.7

Main list, from the first entry:
target gene | DRSC id | infection score, replicate 1 | infection score, replicate 2
CG16786 (GeneID 37856) | DRSC04281 | 2.34 | 9.94
CG15767 (GeneID 31508) | DRSC18073 | 1.06 | 0.7
CG15767 (GeneID 31508) | DRSC29131 | 2.95 | 21.4
CG2841 (GeneID 44529) | DRSC18824 | 6.96 | 0.69
CG2841 (GeneID 44529) | DRSC22106 | 7.11 | 1.84
CG34429 (GeneID 5740606) | DRSC10120 | 0.37 | 1.47
CG12914 (GeneID 36078) | DRSC06229 | 25.2 | 6.96
CG31054 (retired record) (GeneID 318573) | DRSC22134 | 2.43 | 15.7
CG6978 (GeneID 31413) | DRSC18409 | 3.26 | 2.53
CG33296 (GeneID 2768941) | DRSC00998 | 4.61 | 6.28
CG33296 (GeneID 2768941) | DRSC23839 | 2.82 | 4.39
twz (GeneID 37456) | DRSC04069 | 5.48 | 5.13
twz (GeneID 37456) | DRSC25832 | 1.33 | 9.91
CG44251 (GeneID 36429) | DRSC06856 | 22.8 | 7.19
CG44251 (GeneID 36429) | DRSC24631 | 4.77 | 3.46
smash (GeneID 40583) | DRSC12139 | 15.7 | 22
smash (GeneID 40583) | DRSC12239 | 7.44 | 16
LManI (GeneID 34436) | DRSC02838 | 23.5 | 23.9
LManI (GeneID 34436) | DRSC24754 | 3.09 | 8.77
CG13056 (GeneID 50267) | DRSC09937 | 3.06 | 3.05
CG13056 (GeneID 50267) | DRSC29419 | 5.76 | 17.6
CG6870 (GeneID 35067) | DRSC02998 | 11.9 | 1.69
CG6870 (GeneID 35067) | DRSC25586 | 9.23 | 3.45
